Fold change is the IC50 on the isolate divided by the IC50 on a reference virus; 1 = unchanged, higher = more resistant. Changes are given against the subtype B consensus. No active / inactive call. The values were gathered from many studies (numbered anew) with different assays, which the source does not name. Most viruses are clinical isolates; some are laboratory strains or clones with known resistance changes. Isolates with mixed residues are left out; stretches that were not sequenced show no change. Round top values that many isolates share are read here as limits; other very high values and 0.1 may be limits too.
Experiments:
Test in all cases: fold change of IC50 against reference virus; higher = more resistant
didanosine = compound: O=c1[nH]cnc2c1ncn2[C@H]1CC[C@@H](CO)O1 [didanosine]
Protocol: (§1)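 Cell-culture drug susceptibility tests of virus bearing the reverse transcriptase of each isolate, gathered from many studies.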

zidovudine = compound: Cc1cn([C@H]2C[C@H](N=[N+]=[N-])[C@@H](CO)O2)c(=O)[nH]c1=O [zidovudine]
Protocol: as §1

zalcitabine = compound: Nc1ccn([C@H]2CC[C@@H](CO)O2)c(=O)n1 [zalcitabine]
Protocol: as §1

stavudine = compound: Cc1cn([C@H]2C=C[C@@H](CO)O2)c(=O)[nH]c1=O [stavudine]
Protocol: as §1

abacavir = compound: Nc1nc(NC2CC2)c2ncn([C@H]3C=C[C@@H](CO)C3)c2n1 [abacavir]
Protocol: as §1

delavirdine = compound: CC(C)Nc1cccnc1N1CCN(C(=O)c2cc3cc(NS(C)(=O)=O)ccc3[nH]2)CC1 [delavirdine]
Protocol: as §1

nevirapine = compound: Cc1ccnc2c1NC(=O)c1cccnc1N2C1CC1 [nevirapine]
Protocol: as §1

| Test System | fold change of IC50 against reference virus (didanosine) | fold change of IC50 against reference virus (zidovudine) | fold change of IC50 against reference virus (zalcitabine) | fold change of IC50 against reference virus (stavudine) | fold change of IC50 against reference virus (abacavir) | fold change of IC50 against reference virus (delavirdine) | fold change of IC50 against reference virus (nevirapine) |
| --- | --- | --- | --- | --- | --- | --- | --- |
| HIV-1 isolate 1218 (reverse transcriptase changes: A62V S68G V75I F77L A98S F116Y I135T Q151M I178M G196E I202V R211G, study 113) | 5 | 950 | 10 | 71 | – | – | – |
| HIV-1 isolate 832 (reverse transcriptase changes: K65R L74V K122E M184V F214L A272P K277R A376T A400T D460N S468T H483Y K512Q S519N, study 144) | 6 | 1 | 7 | 1 | 10 | – | – |
| HIV-1 isolate 537 (reverse transcriptase changes: M41L L210W T215F, study 110) | 0.9 | 22.1 | 0.4 | 2 | – | 0.2 | 0.2 |
| HIV-1 isolate 1287 (reverse transcriptase changes: L74V Y115F K122E F214L A272P K277R A376T A400T D460N S468T H483Y K512Q S519N, study 144) | 4 | 3 | 2 | 1 | 4 | – | – |
| HIV-1 isolate 19 (reverse transcriptase changes: K102Q S162C M184I K277R, study 110) | 1.2 | 0.3 | 1.5 | 0.8 | 3.1 | – | – |
| HIV-1 isolate 1548 (reverse transcriptase changes: A98S I135T Q174L G196E R211G, study 113) | 1 | 1.5 | 1 | 7.1 | – | – | – |
| HIV-1 isolate 837 (reverse transcriptase changes: T39A A62V S68G V75I F77L A98S F116Y I135V Q151M R172K Q174H R211G F214L K219E V245M, study 23) | 13 | 1000 | 9 | 17 | – | – | – |
| HIV-1 isolate 894 (reverse transcriptase changes: F77L F116Y K122E Q151M F214L A272P K277R M357T A376T A400T N447S D460N S468T S519N, study 77) | 43 | 320 | 46 | 100 | – | – | 1 |
| HIV-1 isolate 929 (reverse transcriptase changes: D67N T69D K70R K103N M184V K219Q, study 110) | 1.2 | 2.8 | 2.2 | 1.5 | – | 145 | 195 |
| HIV-1 isolate 986 (reverse transcriptase changes: L74V K122E M184V F214L A272P K277R A376T A400T D460N S468T H483Y K512Q S519N, study 144) | 4 | – | 5 | 2 | 8.5 | – | – |
| HIV-1 isolate 945 (reverse transcriptase changes: M41L L74V A98G M184V T215Y, study 110) | 1.8 | – | 2 | 1.1 | – | 1.4 | 4.7 |
| HIV-1 isolate 1018 (reverse transcriptase changes: K102Q S162C, study 39) | 1 | – | 1 | 1 | – | – | – |
| HIV-1 isolate 989 (reverse transcriptase changes: K102Q S162C I178V K277R I293V K347R R358K V435I S468P, study 4) | 1 | 1 | 1 | 1 | – | – | 1 |
| HIV-1 isolate 65 (reverse transcriptase changes: K65R K122E F214L A272P K277R M357T A376T A400T N447S D460N S468T S519N, study 81) | 3.1 | 3.3 | 3.1 | 3 | – | – | – |
| HIV-1 isolate 608 (reverse transcriptase changes: K20R V21I V35I M41L K43E E44A D67N K102Q V118I K122E I135T M184V G196E L205F H208Y L210W R211K T215Y E224D A272P I293V, study 4) | 3.4 | 470 | 3 | 5 | – | – | 1 |
| HIV-1 isolate 804 (reverse transcriptase changes: L74V K122E F214L A272P K277R A376T A400T D460N S468T H483Y K512Q S519N, study 20) | 6 | 1 | 18 | 1.7 | – | – | – |
| HIV-1 isolate 103 (reverse transcriptase changes: K102Q Q151M S162C K277R I293V R358K V435I S468P K550G, study 4) | 2.9 | 20 | 4 | 3 | – | – | 1 |
| HIV-1 isolate 1421 (reverse transcriptase changes: K122E F214L A272P K277R, study 113) | 1 | 1 | 1 | 1 | – | 1 | 1 |
| HIV-1 isolate 1110 (reverse transcriptase changes: M41L D67N M184V L210W T215Y, study 110) | 1.5 | 21.4 | 0.7 | 2.8 | – | 0.2 | 0.2 |
| HIV-1 isolate 1550 (reverse transcriptase changes: L74V K102Q S162C K277R, study 110) | 1.8 | 1.1 | 1.2 | 0.9 | – | – | – |

| Test System | fold change of IC50 against reference virus (didanosine) | fold change of IC50 against reference virus (zidovudine) | fold change of IC50 against reference virus (zalcitabine) | fold change of IC50 against reference virus (stavudine) | fold change of IC50 against reference virus (abacavir) | fold change of IC50 against reference virus (delavirdine) | fold change of IC50 against reference virus (nevirapine) |
| --- | --- | --- | --- | --- | --- | --- | --- |
| HIV-1 isolate 267 (reverse transcriptase changes: M41L D67N K70R M184V L210W T215Y, study 110) | 1.4 | 39.8 | 1.8 | 1.6 | – | 0.3 | 0.4 |
| HIV-1 isolate 744 (reverse transcriptase changes: T69D, study 49) | 3 | 1 | 8 | 1 | – | – | – |
| HIV-1 isolate 332 (reverse transcriptase changes: T69G, study 49) | 1 | 1 | 1 | 1 | – | – | – |
| HIV-1 isolate 1547 (reverse transcriptase changes: K65R K122E F214L A272P K277R A376T A400T D460N S468T H483Y K512Q S519N, study 144) | 3 | – | 2 | 2 | 3 | – | – |
| HIV-1 isolate 243 (reverse transcriptase changes: L74V K122E K173R Q174K I178M M184V Q207E A272P T286A, study 129) | – | – | 2 | – | 5 | – | – |
| HIV-1 isolate 59 (reverse transcriptase changes: D67N K219Q, study 110) | 1 | 3.3 | 0.7 | 0.7 | – | 0.6 | 0.4 |
| HIV-1 isolate 249 (reverse transcriptase changes: D67N K70R K122E F214L T215F K219E A272P K277R, study 69) | 1.3 | 200 | 1.4 | 3.8 | – | – | – |
| HIV-1 isolate 1141 (reverse transcriptase changes: K122E M184V F214L A272P K277R A376T A400T D460N S468T H483Y K512Q S519N, study 20) | – | 1 | 15 | 1.1 | – | – | – |
| HIV-1 isolate 1070 (reverse transcriptase changes: V75T K122E F214L T215Y A272P K277R A376T A400T D460N S468T H483Y K512Q S519N, study 20) | – | 3.6 | 15 | 3.3 | – | – | – |
| HIV-1 isolate 624 (reverse transcriptase changes: T69S, study 49) | 3 | 2 | 4 | 2 | – | – | – |
| HIV-1 isolate 1023 (reverse transcriptase changes: A62V V75I F77L F116Y K122E Q151M F214L A272P K277R M357T A376T A400T N447S D460N S468T S519N, study 77) | 43 | 320 | 46 | 69 | – | – | 1 |
| HIV-1 isolate 480 (reverse transcriptase changes: T69N, study 49) | 5 | 7 | 8 | 3 | – | – | – |
| HIV-1 isolate 1034 (reverse transcriptase changes: K20R T39K M41L K43E E44D V60I D67N T69D K102Q V118I K122E M184V Q207E L210W R211K T215Y V245E A272P K277R I293V E297K, study 80) | 2.9 | 500 | 4 | 4 | – | – | 2 |
| HIV-1 isolate 160 (reverse transcriptase changes: K122E F214L A272P K277R M357T A376T A400T N447S D460N S468T S519N, study 77) | 1 | 1 | 1 | 1 | – | – | 1 |
| HIV-1 isolate 1000 (reverse transcriptase changes: T69S K102Q S162C, study 39) | 1.2 | – | 1 | 0.9 | – | – | – |
| HIV-1 isolate 350 (reverse transcriptase changes: I5F E28Q K46Q T58S K64R R125K K249P S251L W252P, study 40) | 2 | 6 | 1 | 3 | – | 2 | 1 |
| HIV-1 isolate 1584 (reverse transcriptase changes: V75T K102Q S162C K277R, study 110) | 1.2 | 0.6 | 1.4 | 1.9 | – | – | – |
| HIV-1 isolate 1335 (reverse transcriptase changes: T69A, study 49) | 1 | 5 | 1 | 2 | – | – | – |
| HIV-1 isolate 302 (reverse transcriptase changes: K122E Q151M F214L A272P K277R M357T A376T A400T N447S D460N S468T S519N, study 77) | 5 | 10 | 20 | 3.1 | – | – | 1 |
| HIV-1 isolate 666 (reverse transcriptase changes: V75I F77L K102Q Q151M S162C K277R I293V R358K V435I S468P K550G, study 4) | 5 | 40 | 6 | 5 | – | – | – |

— the supplement of paper PMC3578754
